The term EC50 denotes the midpoint of the concentration-response curve. In general, EC90 refers to the concentration needed for an effect of 90%.

Assay [1] relates to 3TC-resistant (184V) HIV-1 strain. Nature of the assay: endogenous viral RT assay of culture supernatant, HIV-1 infected human PBMC. Type of assay: cell-based.
The test system is the same in assay [2]. The assay can be described thus: real-time RT-PCR HIV-1 viral load in culture supernatant, infected human PBMC. Type of assay: cell-based. (In qPCR the cycle at which signal appears reflects the starting amount.)
Setting [3] is: 184 V, RT assay, human PBMC, 5 days, read-out: EC50.
Setting [4] is: 184 V, RT assay, human PBMC, 5 days, read-out: EC90.
[5] abbreviates: 184 V, real-time RT-PCR, human PBMC, 5 days, read-out: EC50.
[6] abbreviates: 184 V, real-time RT-PCR, human PBMC, 5 days, read-out: EC90.
The mark [7] stands for this setting: Human immunodeficiency virus 1, PBMC, 120 h.

As to `Cc1cn([C@H]2C=C[C@@H](CO)O2)c(=O)[nH]c1=O` [d4T], the EC50 was found to be 0.032 µM in assay [1] (setting [3]) and 0.00078 µM in assay [2] (setting [5]). For the same molecule, the EC90 in assay [1] (setting [4]) and in assay [2] (setting [6]) was 0.19 µM each time.

In assay [1] (setting [7]), `Nc1ccn([C@@H]2S[C@H](CO)C=C2F)c(=O)n1` [β-D-d4-2′F-(4-S-pentenyl)-C] yielded a half-maximal effective concentration (EC50) greater than 100 µM and an EC90 greater than 100 µM. Further, in assay [2] (setting [7]), the half-maximal effective concentration (EC50) is 11.8 µM and the EC90 is greater than 100 µM.

In assay [1] (setting [7]), `Nc1ccn([C@H]2S[C@@H](CO)C=C2F)c(=O)n1` [β-L-d4-2′F-(4-S-pentenyl)-C] came in with an EC50 greater than 100 µM and an EC90 greater than 100 µM. Also, in assay [2] (setting [7]), a half-maximal response (EC50) required 0.091 µM and the EC90 was determined as 34.9 µM.

For (−)-FTC [(-) FTC], the EC50 was found to be 65.1 µM in assay [1] (setting [3]) and 0.34 µM in assay [2] (setting [5]). The values for the EC90 in assay [1] (setting [4]) and in assay [2] (setting [6]) were 160 µM and greater than 100 µM, respectively.

On to `Cc1cn([C@H]2C[C@H](N=[N+]=[N-])[C@@H](CO)O2)c(=O)[nH]c1=O` [AZT], for which, in assay [1] (setting [3]), the 50% effective concentration (EC50) was found to be 0.013 µM. In addition, the concentration for an effect of 90% (EC90) in assay [1] (setting [4]) was 0.12 µM.

As to `Nc1ccn([C@@H]2CS[C@H](CO)O2)c(=O)n1` [3TC], the EC50 in assay [1] (setting [3]) is greater than 100 µM. Further, in assay [1] (setting [4]), the 90% effect concentration (EC90) is greater than 100 µM.

These data come from patent publication US7919247B2, “Simultaneous quantification of nucleic acids in diseased cells” (Pharmasset, Inc., priority 2000, dated 2011).
